Experimental data from paper PMC3961230, “Theoretical and Experimental Studies of New Modified Isoflavonoids as Potential Inhibitors of Topoisomerase I from Plasmodium falciparum” (PLoS ONE, 2014).

Columns and labels:
[1] = test system: P. falciparum CQ-resistant (W2 clone); test: anti-HRPII test, P. falciparum blood parasites, CQ-resistant W2 clone; type: cell-based, Plasmodium falciparum; conditions: selectivity index = ratio between toxicity (BGM) and activity (W2); below 10 indicative of toxicity
Text: (§1) A CQ-resistant and mefloquine-sensitive P. falciparum, clone W2 [27] and a CQ-sensitive strain 3D7, were cultivated as described, in human erythrocytes (A^+), in complete medium (RPMI 1640 supplemented with 10% human sera blood group A^+) and tests followed a protocol slightly modified as follows. Human erythrocytes (A^+) and serum blood group A^+ were kindly donated by Center of Hemotherapy and Hemathology of Minas Gerais (HEMOMINAS - http://www.hemominas.mg.gov.br), under the mutual cooperation term number 18/09.
(§2) The ring-stage parasites sorbitol-synchronized were adjusted for parasitemia and hematocrit, according to the specifications for the test, then distributed in 96-well microtiter plates (Corning, Santa Clara, CA, EUA), previously prepared and containing the diluted compounds in dimethyl sulfoxide (DMSO) (0.02%) aqueous stock solution, in triplicates for each dose. CQ, the standard antimalarial, was tested in parallel each time. The drug activity was determined in relation to parasite cultures in complete medium and no drugs, as described. Parasite growth was measured through the anti-HRPII test in cultures adjusted to 1.5% hematocrit and 0.05% parasitemia, with monoclonal antibodies (MPFM-55A and MPFG-55P) commercially acquired (ICLLAB®, USA) and the TMB chromogen (3,3′,5,5′-Tetramethylbenzidine) from KPL (Gaithersburg, MD, EUA). The reaction was stopped with […] of 1 M sulfuric acid, absorbance read at 450 nm in a spectrophotometer (SpectraMax340PC384, Molecular Devices). Sigmoid dose-response curves were generated with curve-fitting software (Microcal Origin Software 5.0, Inc.), used to determine the 50% inhibitory concentration of the parasite growth (IC50), and activity calculated by comparing growth in drug-exposed cultures and the drug-free control cultures.

[2] = test system: P. falciparum CQ-sensitive (3D7 strain); test: anti-HRPII test, P. falciparum blood parasites, CQ-sensitive 3D7 strain; type: cell-based, Plasmodium falciparum; conditions: selectivity index = ratio between toxicity (BGM) and activity (3D7); below 10 indicative of toxicity
Text: as §1, §2

SMILES | SI, W2 [1] | SI, 3D7 [2]
O=C1C2=C(C(=O)c3ccccc31)[C@H]1Oc3ccccc3[C@H]1CO2 (relative stereo) [LQB118] | 23 | 24
Cc1ccc(S(=O)(=O)N2c3ccccc3[C@H]3COC4=C(C(=O)c5ccccc5C4=O)[C@H]32)cc1 (relative stereo) [LQB192] | 24 | 18
COc1ccc2c(c1)O[C@@H]1C3=C(OC[C@H]21)C(=O)c1ccccc1C3=O (relative stereo) [LQB216] | 60 | 115
COC(=O)c1ccc2c(c1)[C@H]1COC3=C(C(=O)c4ccccc4C3=O)[C@H]1O2 (relative stereo) [LQB221] | 8 | 20
Cc1ccc(S(=O)(=O)N2c3ccccc3[C@H]3CCc4ccccc4[C@H]32)cc1 (relative stereo) [LQB223] |  | 128
